Results of unrelated studies side by side (data: NIAID ChemDB).

All rows: whole-cell or culture tests; species: Mycobacterium tuberculosis

ECn is the concentration giving n% inhibition of infection, replication or growth. Two numbers with a dash give a range or band. Neighbouring rows are from separate reports. MIC bound: limit read from a one-dose screen. Inhibition is in % at the dose shown (toxicity tests: loss of growth or viability). A number after MIC or MFC names an inhibition level or a share of isolates. Blank or dashed fields: not listed here.

structure	dose	strain	read by	cell line	changes	conditions	measure	result
CC(NNC(=O)c1ccncc1)c1ccc(F)cc1		H37Rv (thiacetazone-resistant)					MIC	>31.25 µg/mL
CC(=O)Nc1ccc2c(-c3ccccc3)cc(Cl)nc2n1	12.5 µg/mL	H37Rv					inhibition	0%
CC(=O)c1cc([N+](=O)[O-])c2nc(C3CCCCC3)ccc2c1C1CCCCC1		H37Rv					MIC	>6.25 µg/mL
CN(C)c1ccc(/C=N/NC(=O)c2ccc(N)cc2)cc1		H37Rv					MIC	>12.5 µg/mL
CC1CCCCN1c1cncc(C(N)=S)n1		Ethionamide-resistant					MIC	62.5 µg/mL
O=C(NNCc1ccccc1F)c1ccncc1		Rifampicin-resistant					MIC	0.39 µg/mL
CC(=O)c1cc([N+](=O)[O-])c2nc(C(C)C)ccc2c1C(C)C		Rifampicin-resistant					MIC	12.5 µg/mL
C1CCCC(NCCNC2CCCCCCC2)CCC1							MIC	12.5 µM
Cc1cc2c(cc1C)[n+](=O)c(C(=O)CC(=O)C(=O)Nc1c(C(C)C)cccc1C(C)C)c(C)n2[O-]	6.25 µg/mL	H37Rv	resazurin				inhibition	-4%
COc1ccc(N=Nc2c(O)c3cc(Cl)ccc3[nH]c2=O)cc1		H37Rv	resazurin				MIC	<6.25 µg/mL
CCCCCCCCCCCNCCNCc1ccccc1Sc1ccccc1CO							MIC	25 µM
CC1CN(c2cncc(C(N)=S)n2)CC(C)O1		Ethionamide-resistant					MIC	62.5 µg/mL
NNC(=O)c1cnc(C2CCCC2)[nH]1		H37Rv					MIC	>6.25 µg/mL
CCC(C)(C)NCCNCc1cccc(F)c1							MIC	50 µM
CC1CCCCN1c1cncc(C(=O)NO)n1		Capreomycin-resistant					MIC	62.5 µg/mL
CCCCS(=O)(=O)Nc1ccc2[nH]c(C(=O)OCC)c(C)c2c1		DRM167 32x11	resazurin		G240S DG167-resistant		MIC90	>100 µM
CC(=O)N/N=C(\N)c1nc2c(n3nc(C)nc13)CCCC2	12.5 µg/mL	H37Rv	BACTEC				inhibition	0%
COc1ccc(C2C(C(=O)Nc3ccc(Cl)cc3)=C(C)NC(C)=C2C(=O)Nc2ccc(Cl)cc2)c(O)c1	2.5 µg/mL	H37Rv					inhibition	81%
O=c1cc(-c2ccccc2)c2ccc(N3CCNCC3)nc2[nH]1	12.5 µg/mL	H37Rv					inhibition	0%
CO/N=C1\CN(c2nc3c(cc2F)c(=O)c(C(=O)O)cn3C2CC2)CC1CN		250 isolates					MIC90	8 µg/mL
O=[N+]([O-])c1ccc(-n2nnc3ccccc32)nc1		H37Rv	resazurin				MIC bound	>6.25 µg/mL
CC(=O)/C(N=Nc1ccc(C(=O)N/N=C/c2ccccc2)cc1)=C(\C)O	12.5 µg/mL	H37Rv					inhibition	35%
CCOc1c(N=Nc2ccc(Cl)cc2Cl)c(C)nn1C(=S)S		CS-R					MIC	6.3 µg/mL
Cc1ccccc1N=Nc1c(O)c2ccccc2n(C)c1=O		H37Rv	resazurin				MIC	<6.25 µg/mL
CC(NNC(=O)c1ccncc1)c1ccc(Cl)c(Cl)c1		Ethionamide-resistant					MIC	>50 µg/mL
CCCCS(=O)(=O)Nc1ccc2[nH]c(C(=O)NCc3cccc(F)c3)c(C)c2c1		H37Rv	resazurin				MIC90	>100 µM
CC(=O)c1cc(N)c2nc(C34CC5CC(CC(C5)C3)C4)ccc2c1		H37Rv					MIC	>6.25 µg/mL
CCCCS(=O)(=O)Nc1ccc2[nH]c(C(=O)NCc3ccccc3)c(C)c2c1		H37Rv	resazurin				MIC90	1.56 µM
Nc1cccc2c(C3CCCCC3)cc(C3CCCCC3)nc12		H37Rv					MIC	>6.25 µg/mL
O=C(/N=C1\N=Nc2c(O)c(C3(c4nc5n(c4O)/C(=N/C(=O)Nc4ccc(Cl)cc4)N=N5)Cc4ccccc4C3=O)nn21)Nc1ccc(Cl)cc1		H37Rv	BACTEC				MIC	128 µg/mL
Cc1cccc(N=Nc2c(O)c3ccc([N+](=O)[O-])cc3[nH]c2=O)c1		H37Rv	resazurin				MIC	>6.25 µg/mL
O=C(O)CCc1cnc(C2CCCCC2)[nH]1	6.25 µg/mL	H37Rv					inhibition	0%
CC(NNC(=O)c1ccncc1)c1cccc(C(F)(F)F)c1		Ethionamide-resistant					MIC	>50 µg/mL
CC1CCCN(CC(O)CN2CCN(CC(O)CN3CCCC(C)C3)C(C)C2)C1		H37Rv	BACTEC				MIC bound	>12.8 µg/mL
OCNC(=S)c1cncc(-n2ccnc2)n1		Capreomycin-resistant					MIC	500 µg/mL
C1CN(P2(N3CC3)=NP(N3CC3)(N3CC3)=NP(N3CC3)(N3CC3)=N2)CCO1	128 µg/mL	H37Rv	BACTEC				inhibition	63%
Nc1ccc2c(-c3ccccc3)cc(N3CCNCC3)nc2n1	12.5 µg/mL	H37Rv					inhibition	0%
NC(=O)c1ccc[n+](C2OC(COP(=O)([O-])OP(=O)([O-])OCC3OC(n4cnc5c(=O)[nH]c(N)nc54)C(O)C3O)C(O)C2O)c1.[Li+]		H37Rv	BACTEC				MIC	≥12.5 µg/mL
CC1=C(C(=O)Nc2cccc([N+](=O)[O-])c2)C(c2ccccc2O)C(C(=O)Nc2cccc([N+](=O)[O-])c2)=C(C)N1	2.5 µg/mL	H37Rv					inhibition	92%
CCCCCCCOc1c(C(C)=O)cc([N+](=O)[O-])c2nccc(CC)c12		Rifampicin-resistant					MIC	6.25 µg/mL
C[C@@H](NCCNCCC(c1ccccc1)c1ccccc1)C1CCCCC1							MIC	6.25 µM
COc1ccc(N=Nc2c(O)c3c(Cl)ccc(Cl)c3[nH]c2=O)cc1		H37Rv	resazurin				MIC	>6.25 µg/mL
NNC(=O)c1ccncc1		H37Rv	resazurin				MIC	0.0062–0.012 µg/mL
O=C(NNCc1ccccc1)c1ccncc1		Erdman	colony count	Macrophages		inside macrophages	EC90	0.005 µg/mL
NCC(=O)NC(CO)C(=O)O	12.8 µg/mL	H37Rv	BACTEC				inhibition	17%
COc1ccc(C2CC(=O)c3ccc(OC)cc3O2)cc1	12.5 µg/mL						inhibition	0%
CCCCCCCCOc1c(C(C)=O)cc([N+](=O)[O-])c2nccc(CC)c12		H37Rv					MIC	>6.25 µg/mL
COc1cc2cc3c4cc(OC)c(OC)cc4cc[n+]3c(C)c2cc1OC	12.5 µg/mL	H37Rv	BACTEC				inhibition	-1%
O=C1CC(c2ccccc2)Oc2cc(Br)ccc21		H37Rv					EC50	<12.5 µg/mL
COC(=O)CNC(=O)c1nc(C(C)(C)C)[nH]c1C(C)(C)C	6.25 µg/mL	H37Rv					inhibition	11%
O=c1[nH]c2cc(Cl)ccc2c(O)c1N=Nc1ccc(F)cc1		H37Rv	resazurin				EC50	6.25 µg/mL
COc1c2c(c(OC)c(C(C)=O)c1OC(=O)c1ccccc1)CCO2		H37Rv	BACTEC				MIC bound	>12.5 µg/mL
C[C@H]1COc2c(N3CCN(C)CC3)c(F)cc3c(=O)c(C(=O)O)cn1c23		Clinical isolate BRF 45	resazurin		INH RIF resistant		MIC	0.25 µg/mL
COc1ccc2c(-c3ccccc3)cc(N)nc2n1	12.5 µg/mL	H37Rv					inhibition	54%
O=c1cc(-c2ccc(O)cc2-c2c(O)cc3oc(-c4ccc(O)cc4)cc(=O)c3c2O)oc2cc(O)cc(O)c12							EC50	>12.5 µg/mL
CC1=C(C(=O)Nc2ccc(Cl)cc2)C(c2ccc(O)cc2)C(C(=O)Nc2ccc(Cl)cc2)=C(C)N1		H37Rv					EC50	<2.5 µg/mL
O=C1CC(c2ccccc2)Oc2ccc(I)cc21	12.5 µg/mL						inhibition	27%
Cn1c(=O)c2nc3sc4c(n3c2n(C)c1=O)C(=O)c1ccccc1C4=O		H37Rv	BACTEC				MIC bound	>12.5 µg/mL
O=C1CC(c2ccc(O)c(O)c2)Oc2c1c(O)cc(O[C@@H]1O[C@H](CO)[C@@H](O)[C@H](O)[C@H]1O)c2C1C(=O)c2c(O)cc(O)cc2OC1c1ccc(O)cc1	12.5 µg/mL						inhibition	0%
CCCNCCNC[C@H](C)O							MIC	50 µM
CC(C)(C)c1cc(C=O)cc(C(C)(C)C)c1O		H37Rv	BACTEC				MIC bound	>6.25 µg/mL
CC(=O)/C(N=Nc1ccc(C(=O)N/N=C/c2ccc([N+](=O)[O-])cc2)cc1)=C(\C)O		H37Rv					EC50	>12.5 µg/mL
Cc1onc(-c2ccccc2Cl)c1C(=O)Nc1ccccc1CC1c2ccccc2CCN1C		H37Rv	resazurin				MIC bound	>6.25 µg/mL
Clc1ccc2c(-c3ccccc3)cc(Cl)nc2n1	12.5 µg/mL	H37Rv					inhibition	4%
NC(=O)c1cn(CCO)nc1[N+](=O)[O-]	6.25 µg/mL	H37Rv	resazurin				inhibition	21%
CCOC(=O)N1CCN(c2ccc3c(-c4ccccc4)cc(N4CCN(C(=O)OCC)CC4)nc3n2)CC1	12.5 µg/mL	H37Rv					inhibition	75%
CC1CN(c2cncc(C(=O)NO)n2)CC(C)O1		Isoniazid-resistant					MIC	500 µg/mL
CC1COc2c(N3CCN(C)CC3)c(F)cc3c(=O)c(C(=O)O)cn1c23		250 isolates					MIC50	1 µg/mL
CN(C)c1ccc(/C=C/C(=O)c2ccccn2)cc1	12.5 µg/mL						inhibition	16%
O=C1C=C(Nc2ccc(Cl)cc2Cl)c2ccccc2C1=O	6.25 µg/mL	H37Rv	resazurin				inhibition	37%
O=c1[nH]c2ccc(Cl)cc2c(O)c1N=Nc1ccc([N+](=O)[O-])cc1		H37Rv	resazurin				MIC	<6.25 µg/mL
COc1ccc(CNCCNCCc2ccc(Cl)cc2Cl)c(OC)c1							MIC	50 µM
CCCCS(=O)(=O)Nc1ccc2[nH]c(C#N)c(C)c2c1		DRM167 32x2	resazurin		P206T DG167-resistant		MIC90	>100 µM
Cn1c(=O)c2nc3ccccc3nc2n(C)c1=O		H37Rv	BACTEC				MIC bound	>12.5 µg/mL
C=CCNCCNCCC(c1ccccc1)c1ccccc1							MIC	50 µM
COc1cc(/C=N/NC(=O)c2ccc(N=N/C(C(C)=O)=C(/C)O)cc2)ccc1O		H37Rv					MIC	>12.5 µg/mL
CCOC(=O)c1[nH]c2ccc(N)cc2c1C		H37Rv	resazurin				MIC90	>100 µM
CCOC(=O)C1(C(C)C)OC2(O)C3CCCN3C(=O)C(C(C)C)N2C1=O		H37Rv	BACTEC				MIC bound	>12.5 µg/mL
CC(C)c1cc(C(C)C)c2cccc([N+](=O)[O-])c2n1	6.25 µg/mL	H37Rv					inhibition	22%
CC(/C=C1/C(=O)N(C)C(CC(C)C(Cl)(Cl)Cl)C(=O)N1C)C(Cl)(Cl)Cl		H37Rv	BACTEC				MIC	≥12.5 µg/mL
Nc1cc(-c2ccccc2)c2ccc(=O)[nH]c2n1		H37Rv					EC50	>12.5 µg/mL
CSc1ccc(C2C(C(=O)Nc3ccccc3)=C(C)NC(C)=C2C(=O)Nc2ccccc2)cc1		H37Rv					EC50	<2.5 µg/mL
CN(C)[C@@H]1C(=O)C(C(=O)NCN[C@@H](Cc2ccc(N(CCCl)CCCl)cc2)C(=O)O)=C(O)[C@@]2(O)C(=O)C3=C(O)c4c(O)cccc4[C@@](C)(O)[C@H]3C[C@@H]12	12.5 µg/mL	H37Rv	BACTEC				inhibition	69%
O=C(N/N=C/c1cccc(F)c1)c1ccncc1		Kanamycin-resistant					MIC	≤0.1 µg/mL
COc1c(C(C)=O)cc(N)c2nc(C(C)(C)C)ccc12		H37Rv					MIC	>6.25 µg/mL
CC(C)(C)c1nc(C(=O)O)c(C(C)(C)C)[nH]1		H37Rv					MIC	>6.25 µg/mL
CO[C@H]1/C=C/O[C@@]2(C)Oc3c(C)c(O)c4c(O)c(c(/C=N/N5CCN(C)CC5)c(O)c4c3C2=O)NC(=O)/C(C)=C\C=C\[C@H](C)[C@H](O)[C@@H](C)[C@@H](O)[C@@H](C)[C@H](OC(C)=O)[C@@H]1C		TN644					MIC	>32 µg/mL
COc1ccc(/C=N/NC(=O)c2cnc(C3C4CC5CC(C4)CC3C5)[nH]2)cc1	6.25 µg/mL	H37Rv					inhibition	11%
CCc1ccnc2c([N+](=O)[O-])cc(C(C)=O)c(OC(C)C)c12		Rifampicin-resistant					MIC	50 µg/mL

The last 7 rows once more:

structure | dose | strain | read by | cell line | changes | conditions | measure | result
CN(C)[C@@H]1C(=O)C(C(=O)NCN[C@@H](Cc2ccc(N(CCCl)CCCl)cc2)C(=O)O)=C(O)[C@@]2(O)C(=O)C3=C(O)c4c(O)cccc4[C@@](C)(O)[C@H]3C[C@@H]12 | 12.5 µg/mL | H37Rv | BACTEC |  |  |  | inhibition | 69%
O=C(N/N=C/c1cccc(F)c1)c1ccncc1 |  | Kanamycin-resistant |  |  |  |  | MIC | ≤0.1 µg/mL
COc1c(C(C)=O)cc(N)c2nc(C(C)(C)C)ccc12 |  | H37Rv |  |  |  |  | MIC | >6.25 µg/mL
CC(C)(C)c1nc(C(=O)O)c(C(C)(C)C)[nH]1 |  | H37Rv |  |  |  |  | MIC | >6.25 µg/mL
CO[C@H]1/C=C/O[C@@]2(C)Oc3c(C)c(O)c4c(O)c(c(/C=N/N5CCN(C)CC5)c(O)c4c3C2=O)NC(=O)/C(C)=C\C=C\[C@H](C)[C@H](O)[C@@H](C)[C@@H](O)[C@@H](C)[C@H](OC(C)=O)[C@@H]1C |  | TN644 |  |  |  |  | MIC | >32 µg/mL
COc1ccc(/C=N/NC(=O)c2cnc(C3C4CC5CC(C4)CC3C5)[nH]2)cc1 | 6.25 µg/mL | H37Rv |  |  |  |  | inhibition | 11%
CCc1ccnc2c([N+](=O)[O-])cc(C(C)=O)c(OC(C)C)c12 |  | Rifampicin-resistant |  |  |  |  | MIC | 50 µg/mL